Laboratory results: patent publication US5858687A (priority 1995, dated 1999)

Assays:
[1] = system: human neuroblastoma SK-N-SH; experiment: Cell bioassay in human neuroblastoma SK-N-SH cells; details: FIG. 8A, 10A
[2] = system: human colon carcinoma HT-29 cells; experiment: Cell bioassay in human colon carcinoma HT-29 cells; type: cell-based; details: FIG. 12A, 12B

Row | Substance | cytotoxicity in the presence of ouabain and veratridine [1] | response in the presence of ouabain and veratridine [2]
1 | CTX3C | dose-dependant cytotoxicity | 
2 | ciguatoxin |  | lack of response
3 | brevetoxin PbTx-1 | dose-dependant cytotoxicity | 
